Assay results taken from patent publication US8129402B2 (priority 2002, dated 2012).

System: [PSI+] prion (prion form of the protein Sup35p), STRg6 strain
Type: cell-based, Saccharomyces cerevisiae

CCN(CC)CCCC(C)Nc1c2ccc(Cl)cc2nc2ccc(OC)cc12 (stereo not shown) [quinacrine]
synergy of action with guanidium chloride: strong synergy of action
